The results in this text go back to PubChem BioAssay AID806 (SRMLSC, 2007).

This experiment concerns virus-infected cells, CPE inhibition, dose response. The experiment in a line: PubChem AID 806.

Active and inactive are the calls of the source. How the calls were made is not given here. A value given as a limit tells only on which side of the number the result lay.

As to `ClCCSc1nnc(-c2cccnc2)o1`, the EC50 (usually the concentration that produces a half-maximal response) is inactive: 47.6 µM. Under “measured here: EC90 CPE inhibition”, the EC90 (in general, the point of the concentration-response curve where the effect stands at 90%) is greater than 60 µM. The CC50 (usually the concentration that lowers cell viability or growth by half) (measured here: cytotoxicity, cell viability IC50) was greater than 60 µM.
